Pooled drug test results. Numbers come from NIAID ChemDB, via PubChem.

Common to all: tests on isolated targets; species: HIV-1; protein: Protease; measure: IC50

ICn: concentration for n% inhibition. Lines come from different laboratories, so protocols vary.

compound | result
CC1(C)S[C@H]([C@H](NC(=O)Cc2ccccn2)C(=O)NCc2ccccc2)N[C@H]1C(=O)NCCNC(=O)[C@@H]1N[C@@H]([C@H](NC(=O)Cc2ccccn2)C(=O)NCc2ccccc2)SC1(C)C | 0.0005 µM
CC[C@H](C)[C@H](NC(=O)[C@H](Cc1ccccc1)NCC(O)[C@H](Cc1ccccc1)NC(=O)OCc1ccccc1)C(=O)N[C@@H](Cc1ccccc1)C(=O)OC | 4.85 µM
CC[C@H](C)[C@H](NC(=O)CN(C)C)C(=O)N[C@@H](Cc1ccccc1)[C@H](O)CN(CC(C)C)S(=O)(=O)c1ccc(OC)cc1 | 0.002 µM
CC(C)[C@H](N)C(=O)N[C@H](C(=O)N[C@@H](Cc1ccccc1)[C@@H](O)C(=O)N[C@@H](Cc1ccccc1)C(=O)N[C@H](C(=O)N[C@H](C(N)=O)C(C)C)C(C)C)C(C)C | <5 µM
Cc1cn([C@@H]2C[C@@H](N=[N+]=[N-])[C@H](COC(=O)C(C)C(C)C(=O)N[C@@H](Cc3ccccc3)[C@H](O)C(=O)N3CSC[C@H]3C(=O)NC(C)(C)C)O2)c(=O)[nH]c1=O | >5 µM
Cc1ccc(O)c(C)c1OCC(=O)N[C@@H](Cc1ccccc1)C[C@H](O)[C@H](Cc1ccccc1)NC(=O)O[C@H]1CO[C@H]2OCC[C@H]21 | <0.0005 µM
CC(C)[C@H](N)C(=O)N[C@H](C(=O)N[C@@H](Cc1ccccc1)[C@H](O)C(=O)N(CC(=O)N[C@H](C(=O)N[C@H](C(N)=O)C(C)C)C(C)C)Cc1ccccc1)C(C)C | <1000 µM
CCOC(=O)c1cc(C)c(OCC(=O)N[C@@H](Cc2ccccc2)C[C@H](O)[C@H](Cc2ccccc2)NC(=O)O[C@H]2CO[C@H]3OCC[C@H]32)c(C)c1 | <0.0005 µM
CC[C@@H](C)[C@H](NC(=O)[C@@H]1CCCN1C(=O)[C@@H](O)[C@H](Cc1ccccc1)NC(=O)[C@H](CC(N)=O)NC(=O)CCc1ccccc1)C(=O)NCC1CCCCC1 | <5 µM
CC(C)CN(C[C@@H](O)[C@H](Cc1ccccc1)NC(=O)[C@H](C(C)C)N1C(=O)c2ccccc2C1=O)S(=O)(=O)c1ccc(Br)cc1 | 0.027 µM
Cc1cc(N)cc(C)c1S(=O)(=O)CC(=O)N[C@@H](Cc1ccccc1)C[C@H](O)[C@H](Cc1ccccc1)NC(=O)O[C@H]1CO[C@H]2OCC[C@H]21 | 0.012 µM
CC(=O)ONc1ccc(S(=O)(=O)N(Cc2ccccc2)C[C@@H](O)[C@H](Cc2ccccc2)NC(=O)[C@H](CC(C)C)N2C(=O)c3ccccc3C2=O)cc1 | 0.06 µM
Cc1cc(N)cc(C)c1SCC(=O)N[C@@H](Cc1ccccc1)C[C@H](O)[C@H](Cc1ccccc1)NC(=O)O[C@H]1CO[C@H]2OCC[C@H]21 | <0.001 µM
O=c1oc2cccc(O)c2c(O)c1-c1ccccc1 | 31 µM
CCCCC1(CCc2cccc(NS(=O)(=O)c3ccc(C#N)cc3)c2)COC(=O)C(C(CC)c2cccc(NS(=O)(=O)c3ccc(C#N)cc3)c2)=C1O | 0.122 µM
Cc1cc2[nH]c(=O)[nH]c2c(C)c1OCC(=O)N[C@@H](Cc1ccccc1)C[C@H](O)[C@H](Cc1ccccc1)NC(=O)O[C@H]1CO[C@H]2OCC[C@H]21 | <0.0005 µM
COc1ccc(S(=O)(=O)N(CC(C)C)C[C@@H](O)[C@H](Cc2ccccc2)NC(=O)c2cccnc2)cc1 | 0.067 µM
O=c1oc2cc(O)ccc2c(O)c1Cc1ccccc1 | 9.5 µM
CC(=O)ONc1ccc(S(=O)(=O)N(CC(C)C)C[C@@H](O)[C@H](Cc2ccccc2)NC(=O)CN2C(=O)c3ccccc3S2(=O)=O)cc1 | 0.02 µM
Cc1cc(N)cc(C)c1OCC(=O)N[C@@H](Cc1ccccc1)C[C@H](O)[C@H](Cc1ccccc1)NC(=O)O[C@H]1CO[C@H]2OCC[C@H]21 | <0.0005 µM
Cc1cn([C@@H]2C[C@@H](N=[N+]=[N-])[C@H](COC(=O)CC(C)(C)CC(=O)N[C@@H](Cc3ccccc3)[C@H](O)C(=O)N3CSC[C@H]3C(=O)NC(C)(C)C)O2)c(=O)[nH]c1=O | >5 µM
CC(C)CN(C[C@@H](O)[C@H](Cc1ccccc1)NC(=O)CCN1C(=O)c2ccccc2C1=O)S(=O)(=O)c1ccc(Br)cc1 | 0.048 µM
CCCCC1(CCc2cccc(NS(=O)(=O)c3ccccc3)c2)COC(=O)C(C(CC)c2cccc(NS(=O)(=O)c3ccccc3)c2)=C1O | 0.113 µM
CC1(C)S[C@H](C(NC(=O)Cc2ccccc2)C(=O)NCc2ccccc2)N[C@H]1C(=O)NCCNC(=O)[C@@H]1N[C@@H](C(NC(=O)Cc2ccccc2)C(=O)NCc2ccc(CO)cc2)SC1(C)C | 0.0058 µM
NC(=O)C[C@H](NC(=O)COc1cccc2ccccc12)C(=O)N[C@@H](Cc1ccccc1)[C@H](O)C(=O)N1CSC[C@H]1C(=O)N1CCCCC1 | <5 µM
CC1(C)S[C@H](C(NC(=O)Cc2ccccc2)C(=O)NCCO)N[C@H]1C(=O)NCCNC(=O)[C@@H]1N[C@@H](C(NC(=O)Cc2ccccc2)C(=O)NCc2ccccc2)SC1(C)C | 0.013 µM
Cc1cc(N)cc(C)c1OCC(=O)N[C@@H](Cc1ccccc1)C[C@H](O)[C@H](Cc1ccccc1)NC(=O)OC1CO[C@H]2OCC[C@@H]12 | <0.0005 µM
CC(C)CN(C[C@@H](O)[C@H](Cc1ccccc1)NC(=O)CCc1c[nH]c2ccccc12)S(=O)(=O)c1ccc(Br)cc1 | 0.024 µM
CC(C)(C)OC(=O)N[C@H]1CCCCNC(=O)CC(=O)NCCCC[C@@H](C(N)=O)NC(=O)[C@H](Cc2ccccc2)NC(=O)CC(Cc2ccccc2)NC1=O | >10 µM
CCCCC1(CCc2cccc(NS(=O)(=O)c3ccccn3)c2)COC(=O)C(C(CC)c2cccc(NS(=O)(=O)c3ccccn3)c2)=C1O | 0.03 µM
C#CC[C@H](NC(=O)COc1cccc2ccccc12)C(=O)N[C@@H](Cc1ccccc1)[C@H](O)C(=O)N1CSC[C@H]1C(=O)NC(C)(C)C | <0.05 µM
CC(C)(C)NC(=O)[C@@H]1CSCN1C(=O)[C@@H](O)[C@H](Cc1ccccc1)NC(=O)CCC(=O)O | <5 µM
CCOC1C[C@@H](C(=O)NC(C)(C)C)N(C(=O)[C@@H](O)[C@H](Cc2ccccc2)NC(=O)[C@H](CS(C)(=O)=O)NC(=O)COc2cccc3ccccc23)C1 | >0.05 µM
CC(=O)ONc1ccc(S(=O)(=O)N(CC(C)C)C[C@@H](O)[C@H](Cc2ccccc2)NC(=O)CCCc2c[nH]c3ccccc23)cc1 | 0.06 µM
COc1ccc2c(O)c(Oc3ccccc3)c(=O)oc2c1 | 61 µM
Cc1ccccc1CNC(=O)[C@H]1N(C(=O)[C@@H](O)[C@H](Cc2ccccc2)NC(=O)CC(C)(C)C(=O)O)CSC1(C)C | <5 µM
O=c1oc2cc(O)ccc2c(O)c1-c1ccccc1 | 5 µM
Cc1cn([C@@H]2C[C@@H](N=[N+]=[N-])[C@H](COC(=O)C(C)(C)CC(=O)N[C@@H](Cc3ccccc3)[C@H](O)C(=O)N3CSC(C)(C)[C@H]3C(=O)NC(C)(C)C)O2)c(=O)[nH]c1=O | >5 µM
CS(=O)(=O)C[C@H](NC(=O)COc1cccc2ccccc12)C(=O)N[C@@H](Cc1ccccc1)[C@H](O)C(=O)N1CCC[C@H]1C(=O)Nc1ccccc1O | >0.05 µM
CSC(C)(C)[C@H](NC(=O)CN(C)C)C(=O)N[C@@H](Cc1ccccc1)[C@H](O)CN(CCC(C)C)S(=O)(=O)c1ccccc1 | 0.0032 µM
COc1ccc2c(O)c(-c3ccccc3)c(=O)oc2c1 | 11 µM
CCCCC1(CCc2cccc(NS(=O)(=O)c3ccc(C#N)cn3)c2)COC(=O)C(C(CC)c2cccc(NS(=O)(=O)c3ccc(C#N)cn3)c2)=C1O | 0.052 µM
CC(C)C[C@@H](CC[C@@H](Cc1ccccc1)C(=O)N[C@H](C(=O)N[C@H](C(N)=O)C(C)C)C(C)C)NC(=O)[C@@H](NC(=O)[C@@H](N)C(C)C)C(C)C | >10 µM
CC(C)CN(C[C@@H](O)[C@H](Cc1ccccc1)NC(=O)CN1C(=O)c2ccccc2C1=O)S(=O)(=O)c1ccc(Br)cc1 | 0.03 µM
Cc1ccc(N)c(C)c1OCC(=O)N[C@@H](Cc1ccccc1)C[C@H](O)[C@H](Cc1ccccc1)NC(=O)O[C@H]1CO[C@H]2OCC[C@H]21 | <0.0005 µM
CC[C@@H](C)[C@H](NC(=O)[C@@H]1CCCN1C(=O)[C@@H](O)[C@H](CC1CCCCC1)NC(=O)[C@H](Cc1cnc[nH]1)NC(=O)CCc1ccccc1)C(=O)N[C@H](C(N)=O)C(C)C | <5 µM
COc1ccc2c(O)c(Oc3ccc(Cl)cc3)c(=O)oc2c1 | 8 µM
CC(C)CN(C[C@@H](O)[C@H](Cc1ccccc1)NC(=O)OCc1ccccc1)S(C)(=O)=O | <10 µM

A second listing of 7 rows from above:

compound	result
Cc1cc(N)cc(C)c1OCC(=O)N[C@@H](Cc1ccccc1)C[C@H](O)[C@H](Cc1ccccc1)NC(=O)OC1CO[C@H]2OCC[C@@H]12	<0.0005 µM
C#CC[C@H](NC(=O)COc1cccc2ccccc12)C(=O)N[C@@H](Cc1ccccc1)[C@H](O)C(=O)N1CSC[C@H]1C(=O)NC(C)(C)C	<0.05 µM
COc1ccc2c(O)c(-c3ccccc3)c(=O)oc2c1	11 µM
CCCCC1(CCc2cccc(NS(=O)(=O)c3ccc(C#N)cn3)c2)COC(=O)C(C(CC)c2cccc(NS(=O)(=O)c3ccc(C#N)cn3)c2)=C1O	0.052 µM
CC[C@H](C)[C@H](NC(=O)CN(C)C)C(=O)N[C@@H](Cc1ccccc1)[C@H](O)CN(CC(C)C)S(=O)(=O)c1ccc(OC)cc1	0.002 µM
CC(=O)ONc1ccc(S(=O)(=O)N(CC(C)C)C[C@@H](O)[C@H](Cc2ccccc2)NC(=O)CN2C(=O)c3ccccc3S2(=O)=O)cc1	0.02 µM
Cc1ccc(N)c(C)c1OCC(=O)N[C@@H](Cc1ccccc1)C[C@H](O)[C@H](Cc1ccccc1)NC(=O)O[C@H]1CO[C@H]2OCC[C@H]21	<0.0005 µM